Measurements reported in PubChem BioAssay AID624099 (ICCB-Longwood, 2012).
Purpose: 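Human genes that papillomavirus E2 requires to repress the HPV18 LCR promoter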 (primary screen). Cells: human C33A cervical carcinoma cells (HPV-negative) stably expressing BPV1 E2 and an HPV18 LCR luciferase reporter. Reagent: siRNA pool against human genes, 40 nM. Timing: 72 h. Measurement: 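Per-well luciferase luminescence, z-scored on each plate against the plate mean and SD with control wells left out, then averaged across three replicate plates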. Reading the numbers: mean z-score and z-score: higher = stronger reporter signal, weaker E2 silencing. Rule for the call: 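Mean z ≥ 2 together with z ≥ 2 in two or more of the three replicates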.
In all, the deposit lists about 21,000 reagents; this is an unselected part. 497 of them (2.4%) were called active. 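Higher z means weaker E2 silencing; only reporter increases were scored, and knock-downs that hurt cell survival may mask genuine repressor factors.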

gene	PubChem SID	mean z-score	z-score, replicate A	z-score, replicate B	z-score, replicate C	Call
MMEL1 (GeneID 79258)	SID134311375	-0.36	-0.38	-0.49	-0.22	inactive
TTC28 (GeneID 23331)	SID134318235	-0.39	-0.51	-0.46	-0.19	inactive
TAX1BP3 (GeneID 30851)	SID134318368	0.75	0.73	0.67	0.85	inactive
GK6P (GeneID 201989)	SID134325893	-0.42	-0.27	-0.52	-0.47	inactive
CFP (GeneID 5199)	SID134316910	-0.32	-0.04	-0.35	-0.58	inactive
UBB (GeneID 7314)	SID134317609	-3.26	-2.44	-3.64	-3.71	inactive
NECTIN1 (GeneID 5818)	SID134310377	-0.91	-1.08	-0.69	-0.94	inactive
NTPCR (GeneID 84284)	SID134311979	-0.13	-0.18	-0.23	0.03	inactive
OR12D2 (GeneID 26529)	SID134313667	0.41	0.63	0.25	0.34	inactive
LOC283780 (retired record) (GeneID 283780)	SID134325383	-0.06	-0.4	0.14	0.08	inactive
GNG8 (GeneID 94235)	SID134329457	-0.22	0	-0.28	-0.37	inactive
LOC389749 (retired record) (GeneID 389749)	SID134328067	-2.01	-2.34	-1.91	-1.76	inactive
LOC388444 (retired record) (GeneID 388444)	SID134328833	-0.67	-0.58	-0.76	-0.68	inactive
GJA10 (GeneID 84694)	SID134319020	0.73	0.85	0.61	0.74	inactive
PRDM14 (GeneID 63978)	SID134318507	-0.41	-0.46	-0.66	-0.12	inactive
AQP1 (GeneID 358)	SID134325068	-1.04	-1.13	-0.87	-1.13	inactive
WDR11 (GeneID 55717)	SID134317137	-1.55	-1.7	-1.29	-1.66	inactive
VPREB3 (GeneID 29802)	SID134317896	-0.36	-0.36	-0.54	-0.19	inactive
ZFR2 (GeneID 23217)	SID134325882	-0.13	-0.11	0	-0.28	inactive
ZFR2 (GeneID 23217)	SID134328960	-0.91	-0.79	-0.98	-0.97	inactive
KCNJ5 (GeneID 3762)	SID134311668	0	0.11	-0.3	0.2	inactive
MVP (GeneID 9961)	SID134310700	1.05	1.03	0.82	1.29	inactive
DMC1 (GeneID 11144)	SID134314283	-0.61	-0.2	-0.88	-0.75	inactive
RFPL3 (GeneID 10738)	SID134312060	0.15	0.54	-0.29	0.21	inactive
RAB2B (GeneID 84932)	SID134314942	1.49	1.43	1.53	1.51	inactive
PLEKHG6 (GeneID 55200)	SID134324037	0.34	0.6	0.23	0.21	inactive
FREM1 (GeneID 158326)	SID134320991	-1.79	-1.29	-2.13	-1.94	inactive
UTS2 (GeneID 10911)	SID134316605	-0.09	-0.15	-0.1	-0.01	inactive
TULP2 (GeneID 7288)	SID134315755	-0.75	-0.24	-0.87	-1.15	inactive
FLJ46552 (retired record) (GeneID 401230)	SID134327640	-0.95	-1.24	-1.03	-0.58	inactive
LOC388814 (retired record) (GeneID 388814)	SID134329057	-1.11	-1.12	-0.76	-1.44	inactive
SLC4A7 (GeneID 9497)	SID134312632	1.2	1.52	0.98	1.11	inactive
TMEM14B (GeneID 81853)	SID134319335	-0.3	-0.49	-0.26	-0.16	inactive
PDK3 (GeneID 5165)	SID56478953	0.68	0.64	0.71	0.7	inactive
STK32B (GeneID 55351)	SID56478812	1.38	1.44	1.16	1.54	inactive
SERPINB9 (GeneID 5272)	SID134319445	-0.73	-0.79	-0.77	-0.62	inactive
LOC401312 (GeneID 401312)	SID134327741	-1.05	-1.35	-0.9	-0.92	inactive
LOC401312 (GeneID 401312)	SID134327837	-0.68	-0.62	-0.47	-0.94	inactive
LOC387754 (retired record) (GeneID 387754)	SID134328306	1.56	1.44	1.22	2.02	inactive
DRD2 (GeneID 1813)	SID134310925	0.2	0.08	0.08	0.44	inactive
TULP1 (GeneID 7287)	SID134315754	-0.02	0.33	-0.14	-0.26	inactive
USP31 (GeneID 57478)	SID134325411	-0.82	-0.68	-0.87	-0.9	inactive
AKR1A1 (GeneID 10327)	SID134310736	0.86	0.69	1.03	0.85	inactive
MCRIP1 (GeneID 348262)	SID134328835	-0.1	-0.33	-0.02	0.04	inactive
NEXN (GeneID 91624)	SID134320398	0.01	0.2	-0.34	0.16	inactive
BSCL2 (GeneID 26580)	SID134320728	-0.52	-0.3	-0.59	-0.66	inactive
PRRG2 (GeneID 5639)	SID134314906	0.67	0.86	0.65	0.5	inactive
C12orf75 (GeneID 387882)	SID134329528	-0.82	-1.26	-0.8	-0.4	inactive
SLC35A1 (GeneID 10559)	SID134312583	-0.66	-0.63	-0.76	-0.58	inactive
LOC388565 (retired record) (GeneID 388565)	SID134328940	0.68	0.55	0.88	0.6	inactive
ZWILCH (GeneID 55055)	SID134323174	0.93	1.06	0.81	0.92	inactive
HSPBAP1 (GeneID 79663)	SID134310365	0.1	0.27	-0.11	0.14	inactive
LOC400662 (retired record) (GeneID 400662)	SID134328858	-0.45	-0.39	-0.44	-0.52	inactive
OPHN1 (GeneID 4983)	SID134314187	-0.26	-0.37	-0.36	-0.06	inactive
MEGF9 (GeneID 1955)	SID134326485	1.23	1.36	0.99	1.35	inactive
EFNA4 (GeneID 1945)	SID134312013	-0.58	-0.63	-0.94	-0.19	inactive
ACOX3 (GeneID 8310)	SID134310250	-0.77	-0.76	-0.65	-0.9	inactive
